The record followed here is PubChem BioAssay AID2315 (National Center for Advancing Translational Sciences (NCATS), 2010).

Where “and” joins values, the source holds several entries; their conditions need not be identical. Equal values may be shown once. The list shows a part of the results, in another mix than the full data. Calls of active or inactive are those of the source. No stated cut-off is given here; in the data, active means inhibition mostly above about 28% (no sharp cut-off); inactive means mostly below about 43%.

Broadly, the inhibition is the change of the read-out against control, counted positive when it falls.

This assay in a line: A qHTS for Small Molecule Inhibitors of Shiga Toxin. Further: 0% is about no effect. To be noted: Vero cells, Shiga toxin protein synthesis inhibition reporter; at 38.7 µM; stronger effect = higher value. (qHTS replaces the single test concentration by a dilution series.)
Take `Cc1c2c(nc3ccccc13)SC(C(Cl)Cl)C2` (stereo not given): the inhibition is inactive: 38.4%.

On to `CCOP(=O)(Nc1cccc2ccccc12)OCC`, for which the inhibition is inactive: -3%. Under `COc1cc(C2NCCC3(OCCO3)C2(C)C)cc(OC)c1OC` (stereo not given) stands inactive: -2.59%.

With `CCCOP(=S)(Nc1nc(N)cc(=O)[nH]1)OCCC`, the inhibition was inactive: -4.49%. Under `Nc1cccc2c([As](=O)(O)O)cccc12` stands inactive: -7.03%; under `O=[As](O)(c1cccc(O)c1)c1cccc(O)c1`, inactive: -20.5%. Under `Cc1cccc(OCC(=O)OC2CN3CCC2CC3)c1` (stereo not given) stands inactive: -6.55%; under `CS(=O)(=O)c1ccc(Cl)c(NC(=O)COC(=O)C(O)(c2ccccc2)c2ccccc2)c1`, inactive: -5.83%; under `COc1cc(C(=O)NCC2(N3CCOCC3)CCCCC2)cc(Cl)c1OC(C)C`, inactive: -7.41%. As to `O=[As](O)(O)c1cccnc1`, the inhibition is inactive: 26.6%. Under `O=C(OC1CN2CCC1CC2)c1ccc(Cl)cc1` (stereo not given) stands inactive: -10.6%. Under `O=[N+]([O-])c1ccc2c(c1)nnn2O` stands inactive: -9.09%. Under `CN(C(=O)Cc1ccccc1)[C@@H]1CC[C@]2(CCCO2)C[C@H]1N1CCCC1` stands inactive: 1.55%. As for `CCOP1(=S)c2c(C)nn(CCC#N)c2N=C(c2ccc(F)cc2)N1C` (stereo not given), the inhibition is inactive: -14.3%. Under `NC(=O)Nc1ccc([As](=O)(O)O)cc1` stands inactive: -4.45%. For the molecule `Nc1ccccc1[As](=O)(O)c1ccccc1`, the inhibition was inactive: 18.9%.

Turning to `O=C(O)COc1ccc([As](=O)(O)O)cc1[N+](=O)[O-]`, the inhibition was inactive: 18.3%. Then `O=P(Nc1nccs1)(c1ccccc1)c1nc2ccccc2s1` (stereo not given), with inactive: 10.4%; and `O=P(Nc1nccs1)(Oc1ccccc1)Oc1ccccc1`, with inactive: 41.9%; and `CCOP1(=S)c2c(C)nn(CCC#N)c2N=C(c2ccccc2F)N1C` (stereo not given), with inactive: -17.1%. Then `O=P1(Nc2ccc(Br)cn2)COc2ccccc2OC1`, with inactive: -26.5%. Under `Cc1ccc(OCC(=O)OC2CN3CCC2CC3)cc1` (stereo not given) stands inactive: -3.4%. On to `O=[As](O)(c1cccs1)c1cccs1`, for which the inhibition is inactive: 3.03%. Under `Nc1cccc([As](=O)(O)c2ccccc2)c1` stands inactive: -1.85%; under `O=P1(Nc2ncccn2)COc2ccccc2OC1`, inactive: -7.72%; under `O=C(/C=C/c1ccccc1)OC1CN2CCC1CC2` (stereo not given), inactive: 22%. Then `CN(C)C1(CNC(=O)c2ccc(S(C)(=O)=O)cc2)CCCCC1`, with inactive: -1.29%; and `CC1CCC(C(C)C)C(OP(=O)(Nc2ccccn2)c2ccccc2)C1` (stereo not given), with inactive: -15.6%. As for `Cc1ccc(C(=O)OC2CN3CCC2CC3)cc1` (stereo not given), the inhibition is inactive: -6.05%. As to `Cc1nn(-c2ccccc2)c2c1P(=O)(N1CCOCC1)N(C)C(c1ccccc1)=N2` (stereo not given), the inhibition is inactive: -5.61%. Under `O=[As](O)(c1ccccc1Br)c1ccccc1Br` stands inactive: 14.8%. Under `CC(C)/C=N\N=C(\N)N[N+](=O)[O-]` stands inactive: -5.68%; under `CN(C(=O)Cc1ccc(Cl)c(Cl)c1)[C@@H]1CCCC[C@H]1N1CCCC1`, inactive: -9%; under `CC(C)(C)C(=O)NC(Sc1ncccn1)C(Cl)(Cl)Cl` (stereo not given), inactive: -13.5%. Consider `Clc1n[nH]nc1-c1nn[nH][15n]1`, for which the inhibition was inactive: -50.3%.

As to `CCOP(=O)(Nc1ccc(C)cn1)OCC`, the inhibition was inactive: -7.29%. `CCOP(=O)(NC(=NC(C)c1ccccc1)NC(C)c1ccccc1)OCC` (stereo not given): the inhibition is inactive: 3.41%. Under `O=P1(Nc2ccccn2)COc2ccccc2OC1` stands inactive: -9.97%; under `CCC(C)(OOC(C)(C)C)OOC(C)(C)C`, inactive: -6.33%; under `CC(C)C(=O)NC(Sc1ccccc1)C(Cl)(Cl)Cl` (stereo not given), inactive: -11.9%. Then `O=P(Nc1nccs1)(c1ccccc1)c1ccccc1`, with inactive: -3.33%; and `Nc1ccc([As](=O)(O)c2ccc([N+](=O)[O-])cc2)cc1`, with inactive: 5.89%; and `O=C(OC1CN2CCC1CC2)c1cccc(Cl)c1` (stereo not given), with inactive: -19.1%.

Consider `O=[N+]([O-])c1ccc(O)c(/C=N/Nc2ccc([N+](=O)[O-])cc2[N+](=O)[O-])c1`, for which the inhibition is inactive: 0.806%.

Consider `CC(=O)NC(SC(=S)N(C)C)C(Cl)(Cl)Cl` (stereo not given), for which the inhibition was inactive: 12.6%. With `O=[As](O)(c1ccccc1)c1ccc(O)cc1`, the inhibition was inactive: -4.38%. Regarding `C[C@H]1OP(=O)(Oc2ccccc2)[C@H](O)[C@H](O)[C@H]1N=[N+]=[N-]` (stereo not given in full), the inhibition is inactive: 21.1%.

For `O=P(Nc1nc2ccccc2s1)(c1ccccc1)c1ccccc1`, the inhibition was inactive: 24.5%. Under `O=P(Nc1ccccn1)(c1ccc(Br)cc1)c1ccc(Br)cc1` stands inactive: 38.6%; under `CN(C)C1(CNC(=O)c2ccc(Cl)c(S(N)(=O)=O)c2)CCCCC1`, inactive: -9.76%; under `CN(C)C(=O)Oc1noc2ccccc12`, inactive: -2.33%.

For the molecule `Cc1ccccc1OP(=O)(Nc1ccccn1)Oc1ccccc1C`, the inhibition was inactive: -12.3%. Then `CC(=O)NC(SC(=S)N(CC(C)C)CC(C)C)C(Cl)(Cl)Cl` (stereo not given), with inactive: 0%; and `Cc1ccc(OP(=O)(Nc2ccccn2)Oc2ccc(C)cc2)cc1`, with inactive: -10.4%. Under `COC(=O)c1cc2c(s1)N=C(c1ccccc1)N(C)P2(=O)N1CCOCC1` (stereo not given) stands inactive: -2.87%; under `CCC(=O)N1C2C3N(C(=O)CC)C1C1N(C(=O)CC)C(C(N1C(=O)CC)N3C(=O)CC)N2C(=O)CC`, inactive: -14.2%; under `O=C(OC1CN2CCC1CC2)c1ccccc1` (stereo not given), inactive: -3.52%. As to `O=C(NC1CCS(=O)(=O)C1)NP(=S)(Oc1ccccc1)Oc1ccccc1` (stereo not given), the inhibition was inactive: 14.6%.

As for `Cc1ccc(NP(=O)(Oc2cccc(C)c2)Oc2cccc(C)c2)nc1`, the inhibition was inactive: -7.74%.

Take `CCOC(=O)NC(Sc1ccccc1)C(Cl)(Cl)Cl` (stereo not given): the inhibition is inactive: 8.64%.

On to `c1ccc(-c2nn[nH]n2)c(-c2nn[nH]n2)c1`, for which the inhibition was inactive: -8.74%. As for `CC(=O)Nc1ccc(Oc2c([N+](=O)[O-])cc([N+](=O)[O-])cc2[N+](=O)[O-])cc1`, the inhibition is inactive: -18%. Under `CC(=O)Nc1ccc([As](=O)(O)O)c(O)c1` stands inactive: 14.3%; under `CC(=O)c1ccc(N2CC2c2ccncc2)cc1` (stereo not given), inactive: 15.5%; under `C[C@@H]1C=CCP(=O)(Oc2ccccc2)O1` (stereo not given in full), inactive: -1.74%. Then `C[C@H]1OP(=O)(Oc2ccccc2)C[C@@H]2O[C@@H]21` (stereo not given in full), with inactive: 18.6%; and `CC(C)(C)C(=O)NC(Sc1ccccc1)C(Cl)(Cl)Cl` (stereo not given), with inactive: -6.03%; and `CCOc1ccc(C2=NCC(CBr)S2)cc1` (stereo not given), with inactive: -4.81%. Under `O=P1(Nc2nc3ccc(Cl)cc3s2)COc2ccccc2O1` (stereo not given) stands inactive: 29.3%.

For `CC(C)CC(=O)NC(Sc1ccc(Cl)cc1)C(Cl)(Cl)Cl` (stereo not given), the inhibition was inactive: -16.3%. Under `Cc1c2non([O-])c-2c(C)[n+](=O)[n+]1[O-]` stands inactive: 35.7%.

`O=C(NC(Sc1ccncn1)C(Cl)(Cl)Cl)c1ccccc1` (stereo not given): the inhibition is inactive: -10.7%. Then `Oc1ccccc1CNc1ccccn1`, with inactive: 67.3%.

In the case of `Cc1ccc(OP(=O)(Nc2nccs2)Oc2ccc(C)cc2)cc1`, the inhibition is inactive: -1.44%. Then `COc1ccccc1OP(=O)(Nc1ccc(C)cn1)Oc1ccccc1OC`, with inactive: 3.3%; and `Clc1ccc(Cl)c(NC2=NCC(CBr)S2)c1` (stereo not given), with inactive: 2.02%.

For `CN1CCCC(OC(=O)C(c2ccccc2)c2ccccc2)C1` (stereo not given), the inhibition was inactive: 9.54%. As for `NC(=O)c1cc([N+](=O)[O-])cc([N+](=O)[O-])c1N`, the inhibition is inactive: 13%.

Take `Cc1ccc(N/C(=N/P(=O)(N2CCOCC2)N2CCOCC2)N2CCOCC2)cc1`: the inhibition was inactive: -10.2%. Then `Nc1cccc2ccc([As](=O)(O)O)cc12`, with inactive: -6.03%; and `Cc1ccc(NP(=O)(Oc2ccccc2F)Oc2ccccc2F)nc1`, with inactive: 6.66%; and `CN(C(=O)Cc1ccc(Cl)c(Cl)c1)[C@H]1CCCC[C@@H]1N1CCCC1`, with inactive: -5.2%. Under `CCOP(=O)(Nc1ccccc1)OCC` stands inactive: -7.45% and inactive: 10.3%; under `Cc1cc(SC(NC(=O)c2ccc(F)cc2)C(Cl)(Cl)Cl)ncn1` (stereo not given), inactive: 11.6%.

For the molecule `O=C(O)c1ccccc1[As](=O)(O)O`, the inhibition was inactive: 2.73%. Then `CC(=O)Nc1ccc([As](=O)(O)O)cc1`, with inactive: -5.29%; and `O=P(Nc1nc2ccc(Cl)cc2s1)(c1ccccc1)c1ccccc1`, with inactive: 17.6%. Then `O=[N+]([O-])c1cccc(NC2=NCC(CBr)S2)c1` (stereo not given), with inactive: 21.4%; and `O=C(O)CNc1ccc([As](=O)(O)O)cc1`, with inactive: -6.98%; and `CC(C)(C)C(=O)NC(Sc1ccncn1)C(Cl)(Cl)Cl` (stereo not given), with inactive: -8.15%. Under `O=C(Nc1cc([As](=O)(O)O)ccc1O)c1ccccc1` stands inactive: -3.99%; under `CN(C)C(=O)OCCc1n(C)cc[n+]1C`, inactive: 7.22%; under `CC1CCN(C(=O)Oc2c(Cl)cc(Cl)c3cccnc23)CC1`, inactive: 25.9%. For `CC(=O)C1=CCCC2CCC1N2` (stereo not given), the inhibition was inactive: 2.45%. Then `Nc1ccc([As](=O)(O)c2ccc(N)cc2)cc1`, with inactive: 1.27%.

Regarding `CCN(/C(=N/P(=O)(N1CCOCC1)N1CCOCC1)N1CCOCC1)c1ccc(OC)cc1`, the inhibition is inactive: -4.06%. Take `O=[N+]([O-])c1cccc2n[nH]nc12`: the inhibition is inactive: -44.8%. Then `CC(=O)N1C2C3N(C(C)=O)C1C1N(C(C)=O)C(C(N1C(C)=O)N3C(C)=O)N2C(C)=O`, with inactive: -3.66%; and `Cc1ccc(NP(=O)(Oc2ccccc2)Oc2ccccc2)nc1`, with inactive: 5.38%. In the case of `COc1ccc(C2=NCC(CBr)S2)cc1` (stereo not given), the inhibition is inactive: 6.46%.
